Experimental findings from patent publication US9682130B2 (priority 2015, dated 2017) are described below.

In data set [1] the test system is Human Adenovirus 5 (AD5 strain NYS #98-1836). The class given is cell-based. As to conditions: CC50 divided by EC50. As to the method:
(§1) To assess in vitro cytotoxicity, both a cytopathic effects of a virus (CPE) regression assay and a neutral red lysosomal uptake cell viability assay was performed essentially as described in, e.g., Repetto, et al., Neutral Red Uptake Assay for the Estimation of Cell Viability/Cytotoxicity, Nat. Protoc. 3: 1125-1131 (2008), the content of which is hereby incorporated by reference in its entirety. Ninety-six-well plates were seeded with MA-104 cells at 1×10^5 cells/mL and incubated overnight at 37° C. with 5% CO2. […] Each dilution was added to 5 wells of a 96-well plate with 80% to 100% confluent cells, and three wells of each dilution were then infected with one of the two test viruses. Two wells remained uninfected as controls for toxicity. Six wells per plate were set aside as uninfected, untreated cell controls, and six wells per plate were infected with no treatment as virus controls. […] Assay plates were incubated at 37° C. with 5% CO2. […] After CPE reduction assay was completed, a neutral red lysosomal uptake assay was conducted by filling each well with 0.011% (m/v) neutral red, a vital stain. The plates then were incubated for about 2 hours at 37° C. in the dark. […] The plates were then read on a spectrophotometer at 540 nm to quantify the neutral red taken up by the healthy cells. […]

For data set [2], the system named is Human Adenovirus 8 (Ad8 strain 13306). The data set is described as follows: CPE reduction assay, Adenovirus 8. The class given is cell-based. To be noted: CC50 divided by EC50. On the procedure:
as §1

“And” between values parts separate entries of the source, which are not always exact repeats. Equal entries are not always repeated.

For `Nc1ccn([C@H]2CC[C@@H](CO)O2)c(=O)n1` [ddC, 2′, 3′-Dideoxycytidine], the “CPE Reduction Assay SI” value was > 2400 and <2400 in data set [1]; > 2400 and <2400 in data set [2].
